Pooled drug test results. Numbers come from NIAID ChemDB, via PubChem.

Shared fields: tests in culture

Conditions beyond the fields shown may differ between rows.

| smiles | read-out | tested at | organism | strain or isolate | conditions | read by | value |
|---|---|---|---|---|---|---|---|
| CC(C)(C)[Si](C)(C)ONC(=O)c1cc([N+](=O)[O-])cc(C(F)(F)F)c1 | zone | 2000 µM | Mycobacterium luteus | ATCC 10240 |  | agar diffusion / agar | 0 mm |
| O=C(O)c1cn(C2CC2)c2c(F)c(N3CCNCC3)c(F)cc2c1=O | MIC99 |  | Mycobacterium smegmatis | KD1995 (GYRA D95H) |  |  | 1.1 µg/mL |
| O=C(NOCc1ccccc1)c1cc(Br)cc(C(F)(F)F)c1 | MIC |  | Mycobacterium vaccae | IMET 10670 |  | resazurin | 12.5 µM |
| CCC1CN(c2cc3c(cc2F)c(=O)c(C(=O)O)cn3C2CC2)CCN1 | MIC99 |  | Mycobacterium smegmatis | KD1995 (GYRA D95H) |  |  | 3.8 µg/mL |
| C[C@@H]1CN(c2c(F)c(N)c3c(=O)c(C(=O)O)cn(C4CC4)c3c2F)C[C@H](C)N1 | MIC50 |  | Mycoplasma hominis | 37 strains |  |  | 0.032 µg/mL |
| CCOc1cc(Cc2cnc(N)nc2N)cc(OCC)c1-n1cccc1 | MBC |  | Mycobacterium ulcerans | Isolate 94-886 |  |  | 1 µg/mL |
| C#CC(C)O | MIC |  | Mycobacterium bovis BCG | 1173P2 | 48 h | resazurin | 125 µg/mL |
| COc1c(N2CC(C)NC(C)C2)c(F)cc2c(=O)c(C(=O)O)cn(C3CC3)c12 | MIC99 |  | Mycobacterium smegmatis | KD2012 (GYRA G89A) |  |  | 0.18 µg/mL |
| Cc1nn(-c2ccccc2)c2c1C(c1cn(-c3ccccc3)nc1-c1ccc(F)cc1)C1=C(NC(C)(c3cc(O)c(I)cc3Cl)NC1=O)O2 | zone | 1 mg/mL | Mycobacterium phlei | NCIM 2240 |  | agar diffusion / agar | 8.6 mm |
| CC[C@H]1OC(=O)[C@H](C)[C@@H](O[C@H]2C[C@@](C)(OC)[C@@H](O)[C@H](C)O2)[C@H](C)[C@@H](O[C@@H]2O[C@H](C)C[C@H](N(C)C)[C@H]2O)[C@](C)(OC)C[C@@H](C)C(=O)[C@H](C)[C@@H](O)[C@]1(C)O | MIC |  | Mycobacterium avium paratuberculosis | K-10(PYUB180) |  |  | 1.25 µg/mL |
| C[C@H]1c2cccc(O)c2C(O)=C2C(=O)[C@]3(O)C(O)=C(C(N)=O)C(=O)[C@@H](N(C)C)[C@@H]3[C@@H](O)[C@@H]21 | MIC50 |  | Mycobacterium marinum | 37 clinical isolates |  |  | 2 µg/mL |
| CCC1CN(c2c(F)cc3c(=O)c(C(=O)O)cn(C4CC4)c3c2F)CCN1 | MIC99 |  | Mycobacterium smegmatis | KD1995 (GYRA D95H) |  |  | 1.2 µg/mL |
| COc1ccc(-c2nn(-c3ccccc3)cc2C2C3=C(NC(C)(c4cc(O)ccc4Cl)NC3=O)Oc3c2c(C)nn3-c2ccccc2)cc1 | zone | 1 mg/mL | Mycobacterium phlei | NCIM 2240 |  | agar diffusion / agar | 2 mm |
| C#CCCO | MIC |  | Mycobacterium bovis BCG | 1173P2 | 48 h | resazurin | 125 µg/mL |
| Cc1nn(-c2ccccc2)c2c1C(c1cn(-c3ccccc3)nc1-c1ccc(Cl)cc1)C1=C(NC(C)(c3cc(O)cc(O)c3)NC1=O)O2 | zone | 0.1 mg/mL | Mycobacterium phlei | NCIM 2240 |  | agar diffusion / agar | 2.5 mm |
| COc1c(N2CCNC(C)C2)c(F)cc2c(=O)c(C(=O)O)cn(C3CC3)c12 | MIC50 |  | Mycobacterium marinum | 37 clinical isolates |  |  | 0.094 µg/mL |
| CCN1CCN(c2c(F)cc3c(=O)c(C(=O)O)cn(C4CC4)c3c2F)CC1 | MIC99 |  | Mycobacterium smegmatis | KD1991 (GYRA D95Y) |  |  | 2.3 µg/mL |
| C#CC(CCCCC)OC(=O)CCCCCC | MIC |  | Mycobacterium bovis BCG | 1173P2 | 48 h | resazurin | 62.5 µg/mL |
| CC1COc2c(N3CCN(C)CC3)c(F)cc3c(=O)c(C(=O)O)cn1c23 | MIC50 |  | Mycoplasma hominis | 37 strains |  |  | 1 µg/mL |
| Cc1nn(-c2ccccc2)c2c1C(c1cn(-c3ccccc3)nc1-c1ccc(F)cc1)C1=C(NC(C)(c3cc(O)c(Cl)c(O)c3)NC1=O)O2 | zone | 0.5 mg/mL | Mycobacterium phlei | NCIM 2240 |  | agar diffusion / agar | 1.5 mm |
| CC1CN(c2c(F)cc3c(=O)c(C(=O)O)cn(C4CC4)c3c2Br)CCN1 | MIC99 |  | Mycobacterium smegmatis | KD1163 (GRYA+) |  |  | 0.032 µg/mL |
| NCC[C@H](O)C(=O)N[C@@H]1C[C@H](N)[C@@H](O[C@H]2O[C@H](CN)[C@@H](O)[C@H](O)[C@H]2O)[C@H](O)[C@H]1O[C@H]1O[C@H](CO)[C@@H](O)[C@H](N)[C@H]1O | MIC |  | Mycobacterium avium paratuberculosis | K-10(PYUB180) |  |  | 2 µg/mL |
| COc1cc(Cc2cnc(N)nc2N)cc(OC)c1Br | MBC |  | Mycobacterium ulcerans | Isolate 94-886 |  |  | 32 µg/mL |
| CC1CN(c2c(F)cc3c(=O)c(C(=O)O)cn(C4CC4)c3c2Cl)CC(C)N1 | MIC99 |  | Mycobacterium smegmatis | KD1163 (GRYA+) |  |  | 0.058 µg/mL |
| NC[C@H]1O[C@H](O[C@H]2[C@H](O)[C@@H](O[C@H]3O[C@H](CO)[C@@H](O)[C@H](N)[C@H]3O)[C@H](N)C[C@@H]2N)[C@H](O)[C@@H](O)[C@@H]1O | MIC |  | Mycobacterium avium paratuberculosis | K-10(PYUB180) |  |  | ≥128 µg/mL |
| O=C(O)C#Cc1ccccc1 | MIC |  | Mycobacterium bovis BCG | 1173P2 | 48 h | resazurin | 125 µg/mL |
| CC(C)(C)[Si](C)(C)ONC(=O)c1ccccc1 | zone | 2000 µM | Mycobacterium luteus | ATCC 10240 |  | agar diffusion / agar | 0 mm |
| C#CCCCCCC | MIC |  | Mycobacterium bovis BCG | 1173P2 | 24 h | resazurin | 125 µg/mL |
| COc1c(N2CCNC(C)C2)c(F)cc2c(=O)c(C(=O)O)cn(C3CC3)c12 | MIC99 |  | Mycobacterium smegmatis | KD2008 (GYRA G89C) |  |  | 0.73 µg/mL |
| NCC[C@H](O)C(=O)N[C@@H]1C[C@H](N)[C@@H](O[C@H]2O[C@H](CN)[C@@H](O)[C@H](O)[C@H]2O)[C@H](O)[C@H]1O[C@H]1O[C@H](CO)[C@@H](O)[C@H](N)[C@H]1O | MIC90 |  | Mycobacterium marinum | 37 clinical isolates |  |  | 3 µg/mL |
| O=C(NOCc1ccccc1)c1ccc(Cl)cc1 | zone | 2000 µM | Mycobacterium luteus | ATCC 10240 |  | agar diffusion / agar | 19 mm |
| CC[C@@H](CO)NCCN[C@@H](CC)CO | MIC |  | Mycobacterium bovis BCG | 1173P2 | 48 h | resazurin | 0.75 µg/mL |
| O=C(O)c1cn(C2CC2)c2c(Cl)c(N3C[C@@H]4CCCN[C@@H]4C3)c(F)cc2c1=O | MIC |  | Mycobacterium avium paratuberculosis | K-10(PYUB180) |  |  | 0.008 µg/mL |

Zone: diameter of growth inhibition. An empty or dashed field is not shown. MIC50, MIC90 and the like: level of inhibition, or share of isolates inhibited.